In patent publication KR20230010676A (dated 2023):

Target: SARS-CoV-2 스파이크 단백질 (SARS-CoV-2, UniProt P0DTC2 14-1273)
Assay: cell-based or functional assay

B1: S2N22 (antibody, V domains shown)
VH: EVQLVESGGGLVQPGGSLRLSCAASGFTFSSYPMSWVRQAPGKGLEWVSAISGSGNYTYYADSVKGRFTISRDNSKNTLYLQMNSLRAEDTAVYYCAKDPGGLSNFDFWGQGTLVTVSS
VL: NIQMTQSPSSLSASVGDRVTITCRASQSISTYLNWFQQKPGKAPKLLIYAASSLQSGVPSRFSGSGSGTDFTLTISSLQREDFATYYCQQTYSTPRIFGQGTKLEIK
  EC50 (neutralisation): 0.0362 µg/mL
  EC90 (neutralisation): 0.0588 µg/mL
